Pooled drug test results. Numbers come from NIAID ChemDB, via PubChem.

Shared fields: tests in culture; species: Herpes simplex virus 1

Conditions beyond the fields shown may differ between rows. ECn: concentration that inhibits the pathogen or its effect by n%. Blank or dashed fields: not listed here.

compound,strain,read by,measure,cell line,result
O=C(O)P(=O)(O)O,V8523,plaque count,EC50,SIRC,<500 µM
O=c1[nH]c(=O)n([C@@H]2O[C@H](CO)[C@@H](O)[C@@H]2F)cc1/C=C/Br,-,plaque count,EC50,HEL,0.14 µM
COC(=O)[C@H](C)NP(=O)(OC[C@H]1C/C1=C/n1cnc2c(OC)nc(N)nc21)Oc1ccccc1,-,plaque count,EC50,HFF,1.1 µM
O=C(O)Cc1cc(O)ccc1O,B2006 (TK-),cytopathic effect,EC50,E6SM,4 µg/mL
Nc1ncnc2c1ncn2[C@@H]1O[C@H](CO)C[C@@H]1O,KOS,cytopathic effect,EC50,VERO,21.6 µg/mL
Nc1ncnc2c1ncn2C[C@@H](CO)OCP(=O)(O)O,3 strains,cytopathic effect,EC50,Primary rabbit kidney cells,2 µg/mL
N#Cc1c(N)n[nH]c1-c1ccc(F)cc1,KOS,plaque count,EC50,VERO,3 µg/mL
Cc1cc(O)ccc1O,KOS,cytopathic effect,EC50,E6SM,120 µg/mL
O=c1[nH]c(=O)n([C@H]2C[C@H](O)[C@@H](CO)O2)cc1I,-,plaque count,EC50,HEL,2.63 µM
NC(=O)c1ncn([C@@H]2O[C@H](CO)[C@@H](O)[C@H]2O)n1,-,plaque count,EC50,-,25 µM
NC(=O)c1ncn([C@@H]2O[C@H](CO)[C@@H](O)[C@H]2O)n1,VMW1837 (TK-),cytopathic effect,EC50,E6SM,192 µM
Nc1nccc2c1ncn2[C@H]1C[C@H](O)[C@@H](COP(=O)(O)COC(=O)[C@@H](N)CC(=O)O)O1,KOS,-,EC50,HEL,>100 µM
Nc1cc(OC[C@H](CO)OCP(=O)(O)O)nc(N)n1,KOS,cytopathic effect,EC50,-,14 µM
N#CCc1csc2ccccc12,MCRAE,cytopathic effect,EC50,MRC-5,2.5 µg/mL
OC[C@H]1O[C@@H](n2cnc3cc(Cl)c(Cl)cc32)[C@H](O)[C@@H]1O,KOS,ELISA,EC50,HFF,>30 µM
O=c1[nH]c(=O)n([C@@H]2O[C@H](CO)[C@@H](O)[C@@H]2F)cc1I,-,plaque count,EC50,HEL,0.073 µM
O=c1ccn([C@@H]2O[C@@H](CO)[C@H](O)[C@H]2O)c(=O)[nH]1,F,cytopathic effect,EC50,VERO B,>1000 µM
Nc1nc2c(ncn2COCCOP(=O)(O)C(=O)O)c(=O)[nH]1,L2,cytopathic effect,EC50,VERO,35.7 µM
Cc1cn([C@H]2C[C@@H](O)[C@H](CO)O2)c(=O)[nH]c1=O,F,cytopathic effect,EC50,VERO B,>1000 µM
O=[N+]([O-])c1ccc2nc(Cl)[nH]c2c1,KOS,ELISA,EC50,HFF,>21 µM
CC(C)(C)C(=O)OCOC(=O)CN(CC(=O)OCOC(=O)C(C)(C)C)P(=O)(OC[C@H]1O[C@@H](n2cc(/C=C/Br)c(=O)[nH]c2=O)C[C@@H]1O)Oc1ccccc1,KOS,-,EC50,HEL,1.1 µM
Nc1cc(OCCOCP(=O)(O)O)nc(N)n1,KOS,cytopathic effect,EC50,-,15 µM
Nc1ncnc2c1ncn2CCOCP(=O)(O)O,-,-,MIC,-,7 µg/mL
O=C1Nc2c(Cl)cc(Cl)cc2C12Nc1ccccc1S2,KOS,plaque count,EC50,VERO,13 µg/mL
CC#Cc1cn([C@@H]2O[C@H](CO)[C@@H](O)[C@@H]2O)c(=O)[nH]c1=O,-,plaque count,EC50,HEL,>1135 µM
COC(=O)[C@H](C)NP(=O)(OC[C@H]1C/C1=C\n1cnc2c(=O)[nH]c(N)nc21)Oc1ccccc1,-,plaque count,EC50,VERO,>100 µM
Nc1nc(N)c2ncn(CCOCP(=O)(O)O)c2n1,TK-,-,MIC,-,1 µg/mL
O=c1[nH]cnc2c1ncn2CCOCP(=O)(O)O,(TK-) 2 strains,cytopathic effect,EC50,Primary rabbit kidney cells,>400 µg/mL
Oc1cccc(O)c1O,KOS,cytopathic effect,EC50,E6SM,15 µg/mL
O=c1ccn(CC(CO)OCP(=O)(O)O)c(=O)[nH]1,(TK-) 2 strains,cytopathic effect,EC50,Primary rabbit kidney cells,>400 µg/mL
Nc1ccnc2c1ncn2C1CC(O)C(CO)O1,KOS,-,EC50,HEL,>100 µM
Nc1nc(NC2CC2)c2ncn(C=C3CC3CO)c2n1,-,ELISA,EC50,BSC-1,15 µM
O=c1[nH]cnc2c1ncn2CC(CO)OCP(=O)(O)O,(TK-) 2 strains,cytopathic effect,EC50,Primary rabbit kidney cells,>400 µg/mL
Nc1ccn(C[C@@H](CO)OCP(=O)(O)O)c(=O)n1,KOS,cytopathic effect,EC50,HEL,0.55 µg/mL
Nc1nc2c(ncn2[C@@H]2O[C@@H](CO)[C@H](O)[C@H]2O)c(=O)[nH]1,F,cytopathic effect,EC50,VERO B,>1000 µM
Nc1ncnc2c1ncn2[C@@H]1OC(C#CI)[C@@H](O)[C@H]1O,VMW1837 (TK-),cytopathic effect,EC50,E6SM,0.26 µM
Nc1ccn([C@@H]2C[C@@H](O)[C@H](CO)O2)c(=O)n1,-,-,EC50,HFF,>20 µM
Nc1ncnc2c1ncn2C[C@@H](CO)OCP(=O)(O)O,KOS,cytopathic effect,EC50,-,6.6 µM
O=C(O)c1cc(O)ccc1O,KOS,cytopathic effect,EC50,E6SM,20 µg/mL
C[C@@]1(CO)[C@H](O)CC[C@@]2(C)[C@H]1CC[C@H]1C[C@@H]3C[C@@]12CC[C@]3(O)CO,KOS,plaque count,EC50,VERO,3 µg/mL
Cc1cn([C@@H]2C[C@@H](O)[C@H](CO)O2)c(=O)[nH]c1=O,-,-,EC50,HFF,>200 µM
Nc1nc2c(ncn2[C@H]2C[C@@H](O)[C@H](CO)O2)c(=O)[nH]1,F,cytopathic effect,EC50,VERO B,>1000 µM
ClCc1csc2ccccc12,MCRAE,cytopathic effect,EC50,MRC-5,0.1 µg/mL
CCc1cn([C@@H]2O[C@H](CO)[C@@H](O)[C@@H]2F)c(=O)[nH]c1=O,-,plaque count,EC50,HEL,0.22 µM

The last 6 rows once more:

compound	strain	read by	measure	cell line	result
O=C(O)c1cc(O)ccc1O	KOS	cytopathic effect	EC50	E6SM	20 µg/mL
C[C@@]1(CO)[C@H](O)CC[C@@]2(C)[C@H]1CC[C@H]1C[C@@H]3C[C@@]12CC[C@]3(O)CO	KOS	plaque count	EC50	VERO	3 µg/mL
Cc1cn([C@@H]2C[C@@H](O)[C@H](CO)O2)c(=O)[nH]c1=O	-	-	EC50	HFF	>200 µM
Nc1nc2c(ncn2[C@H]2C[C@@H](O)[C@H](CO)O2)c(=O)[nH]1	F	cytopathic effect	EC50	VERO B	>1000 µM
ClCc1csc2ccccc12	MCRAE	cytopathic effect	EC50	MRC-5	0.1 µg/mL
CCc1cn([C@@H]2O[C@H](CO)[C@@H](O)[C@@H]2F)c(=O)[nH]c1=O	-	plaque count	EC50	HEL	0.22 µM